Test results as given in patent US8435939B2, “Polypeptide anti-HIV agent containing the same” (priority 2000, dated 2013).
“Also recorded” adds a separate entry of the source.

Legend:
Format in all cases: cell-based
HIV-1 (IIIB) strain = assay: Anti-HIV activity: inhibition of MT-4 cell death by HIV infection (MTT method)
Method: (§1) HIV-1 (IIIB) strain obtained from MOLT/HIV-1 (IIIB) cell previously infected by HIV-1 was used. The polypeptide of the present invention was added to MT-4 CD4^+ T cells infected by HIV in various kinds of concentrations, and a number of living cells after culturing at 37° C. for 5 days was determined by using a 3′-(4,5-dimethylthiazol-2-yl)-2,5-diphenyltetrazolinium bromide (MTT) method. Anti-HIV activity is shown by a concentration (EC50 value), where MT-4 cell death by HIV infection is inhibited by 50%. Cytotoxicity of the peptide according to the present invention was shown by a 50% survival concentration (Test I: CC50 value) by culturing virus-uninfected MT-4 cells with the polypeptide according to the present invention in various concentrations, and determining a number of living cells by the MTT method. Moreover, a number of living cells of human peripheral blood mononuclear cells (monocyte) (PBMC) was determined by trypan blue dyeing method, and shown by a 50% survival concentration (Test II: CC50 value). Respective ratios of the CC50 value and the EC50 value were shown as a selective index (SI). Obtained values were summarized in Table 3 using the conventionally known polypeptides T134 and T140, and an anti-HIV compound: 3′-azido-2′,3′-dideoxythymidine (AZT) used as a medicine as a control anti-HIV agent.

[1] = Cytotoxicity Test I: virus-uninfected MT-4 cells, MTT method; conditions: virus-uninfected MT-4 cells, MTT method; read-out: CC50 (Test I), 50% survival concentration
Method: as §1

[2] = system: virus-uninfected MT-4 cells; assay: as above
Method: as §1

In the case of `N=C(N)NCCC[C@H](NC(=O)[C@@H]1CSSC[C@H](NC(=O)[C@H](Cc2ccc3ccccc3c2)NC(=O)[C@H](CCCNC(=N)N)NC(=O)[C@@H](N)CCCNC(=N)N)C(=O)N[C@@H](Cc2ccc(O)cc2)C(=O)N[C@@H](CCCNC(=N)N)C(=O)N[C@@H](CCCCN)C(=O)N[C@H](CCCNC(N)=O)C(=O)N2CCC[C@H]2C(=O)N[C@@H](Cc2ccc(O)cc2)C(=O)N[C@@H](CCCNC(N)=O)C(=O)N[C@@H](CCCNC(N)=O)C(=O)N1)C(N)=O` [TC14020], the EC50 (HIV-1 (IIIB) strain; MT-4 CD4+ T cells infected by HIV-1 (IIIB), 37° C., 5 days, MTT, average of at least three measurements, read-out: EC50 (concentration where MT-4 cell death by HIV infection is inhibited by 50%)) is reported as 2.7 nM, the “anti-HIV activity in words, compared with T140” value (HIV-1 (IIIB) strain; conclusion drawn from Table 3) is reported as “substantially the same anti-HIV activity as that of the conventionally known T140; also recorded: higher anti-HIV activity” and the CC50 [1] is reported as greater than 100000 nM. The “cytotoxicity in words, compared with conventional T134/T140” value ([2]; conclusion drawn from Table 3) was “cytotoxicity is markedly lowered” and the “SI: CC50 (Test I)/EC50” value ([2]; selective index, MT-4 CC50 over anti-HIV EC50) was greater than 37000.
